Anti-infective test results gathered from many reports (values: NIAID ChemDB through PubChem).

All rows: enzyme or target tests; agent: Hepatitis C virus; target: Nonstructural protein 5B; read-out: IC50

ICn is the concentration giving n% inhibition. Two numbers with a dash give a range or band. Rows are shuffled and stem from different studies.

smiles	result
O=C(O)/C=C/c1ccc(NC(=O)C2(NC(=O)c3ccc4c(c3)nc(-c3ccoc3)n4C3CCCCC3)CCC2)cc1	0.055 µM
C/C=C/C/C=C/CCC(=O)[C@H]1O[C@H]1C(N)=O	>500 µM
NC(=O)c1ncn([C@@H]2O[C@H](COC(=O)c3ccc(S(=O)(=O)F)cc3)[C@@H](O)[C@H]2O)n1	1000 µM
O=C(Nc1ccc2[nH]ncc2c1)c1cc(N2CCN(CCO)CC2)c(F)cc1F	1–10 µg/mL
O=C1CC(=O)OC(CCc2ccc(C(=O)N3CC[C@H](O)C3)cc2)(C2CCCC2)C1	10–50 µM
O=C(O)c1ccc2c(C3CCCCC3)c(-c3ccoc3)n(CC(=O)N3CCC(N4CCCC4)CC3)c2c1	0.015 µM
O=C1CC(=O)OC(CCc2nccs2)(C2CCCC2)C1	>50 µM
Nc1ncnc2c1ncn2[C@@H]1O[C@H](COC(=O)c2ccc(S(=O)(=O)F)cc2)[C@@H](O)[C@H]1O	>1000 µM
O=C(OC[C@H]1O[C@@H](n2cnc3c(=O)[nH]cnc32)[C@H](O)[C@@H]1O)c1ccc(S(=O)(=O)F)cc1	280 µM
CC1=NCCN1c1cc(C(=O)Nc2ccc3[nH]ncc3c2)c(F)cc1F	1–10 µg/mL
CCOC(=O)c1c(NC(=O)NS(=O)(=O)c2ccccn2)sc2c1CCC(C)(C)C2	0.15 µM
O=C(Nc1ccc2cn[nH]c2c1)c1cc(N2CCC(O)CC2)c(F)cc1F	0.1–1 µg/mL
Cn1c(-c2ccoc2)c(C2CCCCC2)c2ccc(C(=O)O)cc21	0.49 µM
CN1CCN(c2cc(C(=O)Nc3ccc4[nH]ncc4c3)c(F)cc2F)CC1	>10 µg/mL
CN(C)C(=O)Cn1c(-c2ccoc2)c(C2CCCCC2)c2ccc(C(=O)O)cc21	0.018 µM
O=C(Nc1ccc2cn[nH]c2c1)c1cc(C2CCNCCN2)c(F)cc1F	1–10 µg/mL
COC(=O)c1ccc(CCC2(C3CCCC3)CC(=O)CC(=O)O2)cc1	1–10 µM
O=C(OC[C@H]1O[C@@H](n2cnc3c(=O)[nH]cnc32)[C@H](O)[C@@H]1O)c1ccc(S(=O)(=O)F)cc1	280 µM
O=C(Nc1ccc2cn[nH]c2c1)c1cc(NCc2ccccn2)c(F)cc1F	1 µg/mL

A second listing of 2 rows from above:

smiles | result
O=C(OC[C@H]1O[C@@H](n2cnc3c(=O)[nH]cnc32)[C@H](O)[C@@H]1O)c1ccc(S(=O)(=O)F)cc1 | 280 µM
O=C(Nc1ccc2[nH]ncc2c1)c1cc(N2CCN(CCO)CC2)c(F)cc1F | 1–10 µg/mL